Measurements reported in PubChem BioAssay AID624099 (ICCB-Longwood, 2012).

Test: 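Human genes that papillomavirus E2 requires to repress the HPV18 LCR promoter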 (primary screen)
Cells: human C33A cervical carcinoma cells (HPV-negative) stably expressing BPV1 E2 and an HPV18 LCR luciferase reporter
Reagent: siRNA pool against human genes, 40 nM
Duration: 72 h
Read-out: 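Per-well luciferase luminescence, z-scored on each plate against the plate mean and SD with control wells left out, then averaged across three replicate plates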
Direction: mean z-score and z-score: higher = stronger reporter signal, weaker E2 silencing
Active means: 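Mean z ≥ 2 together with z ≥ 2 in two or more of the three replicates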
The deposit covers about 21,000 reagents; below is an unselected part. Of all reagents, 497 (2.4%) were called active. 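Higher z means weaker E2 silencing; only reporter increases were scored, and knock-downs that hurt cell survival may mask genuine repressor factors.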

Which result is listed for AQP10?
mean z-score: 0.6; z-score, replicate A: 0.71; z-score, replicate B: 0.42; z-score, replicate C: 0.66; activity call: inactive

What is on record for MCHR2?
mean z-score: 0.86; z-score, replicate A: 0.92; z-score, replicate B: 0.87; z-score, replicate C: 0.8; activity call: inactive

How did the screen score CALR?
mean z-score: 1.34; z-score, replicate A: 1.47; z-score, replicate B: 1.41; z-score, replicate C: 1.13; activity call: inactive

Which result is listed for STAMBPL1?
mean z-score: -1.1; z-score, replicate A: -0.69; z-score, replicate B: -1.26; z-score, replicate C: -1.36; activity call: inactive

Which result is listed for SLC13A5?
mean z-score: -0.35; z-score, replicate A: -0.56; z-score, replicate B: -0.27; z-score, replicate C: -0.2; activity call: inactive

With OPN1MW, how do the results read?
mean z-score: 1; z-score, replicate A: 0.96; z-score, replicate B: 0.84; z-score, replicate C: 1.18; activity call: inactive

For CD9, how do the results read?
mean z-score: 0.76; z-score, replicate A: 0.75; z-score, replicate B: 0.97; z-score, replicate C: 0.57; activity call: inactive

Looked up above.
MCHR2, mean z-score → 0.86
Entry for AQP10 under “z-score, replicate B”: 0.42

Next entries follow:
What did the screen give for PPP1R18?
mean z-score: -1.2; z-score, replicate A: -1.19; z-score, replicate B: -1.31; z-score, replicate C: -1.1; activity call: inactive

With ATXN2L, how do the results read?
mean z-score: 0.07; z-score, replicate A: 0.16; z-score, replicate B: -0.03; z-score, replicate C: 0.08; activity call: inactive

What did the screen give for PCNA?
mean z-score: 1.65; z-score, replicate A: 1.72; z-score, replicate B: 1.59; z-score, replicate C: 1.63; activity call: inactive

With OR7E5P, what does the deposit list?
mean z-score: 1.11; z-score, replicate A: 1.08; z-score, replicate B: 1.52; z-score, replicate C: 0.73; activity call: inactive

With PDIA6, what does the deposit list?
mean z-score: -0.08; z-score, replicate A: 0.18; z-score, replicate B: -0.24; z-score, replicate C: -0.18; activity call: inactive
